The test system of the test is VanA VRE (E. faecalis BM4166 and E. faecium ATCC BAA-2317). Kind of test: Resistance development study (serial passaging at 0.5×MIC). As to conditions: 0.5×MIC serial exposure, MICs monitored daily. Type of test: cell-based, Enterococcus faecalis; Enterococcus faecium.

`CCCCCCCCCCCCCC[N+](C)(C)CCCNC(=O)[C@H]1NC(=O)[C@H]2NC(=O)[C@@H](NC(=O)[C@@H]3NC(=O)[C@H](CC(N)=O)NC(=O)[C@H](NC(=O)[C@@H](CC(C)C)NC)[C@H](O)c4ccc(c(Cl)c4)Oc4cc3cc(c4OC3OC(CO)C(O)[C@H](O)[C@@H]3O[C@H]3CC(C)(N)[C@H](O)[C@H](C)O3)Oc3ccc(cc3Cl)[C@H]2O)c2ccc(O)c(c2)-c2c(O)cc(O)cc21` (stereo partly shown) [Compound 12]: the “emergence of resistance on serial passaging” value was “emerged most rapidly and was pronounced”.

The record behind these values is patent US10934326B2, “Peripheral modifications on pocket-redesigned vancomycin analogs synergistically improve antimicrobial potency and durability” (priority 2016, dated 2021).
